A mixed list of measured activities; the numbers were collected in NIAID ChemDB.

Shared fields: whole-cell or culture tests; organism: Influenza B virus; cells: MDCK; read-out: EC50

Conditions beyond the fields shown may differ between rows. An empty or dashed field is not shown. ECn: concentration that inhibits the pathogen or its effect by n%.

smiles,strain,method,value
C[C@@H](O)C1=C[C@@H](n2cnc3c(N)ncnc32)[C@H](O)[C@@H]1O,B/Singapore/222/79,plaque count,>100 µg/mL
Cc1cn([C@@H]2C[C@@H](O)[C@H](CO)O2)c(=O)[nH]c1=O,,,>100 µM
C1CCN(CCN2CCCCCC2C23CC4CC(CC(C4)C2)C3)CC1,,cytopathic effect,>840 µM
NC(=O)c1ncn([C@@H]2O[C@H](CO)[C@@H](O)[C@H]2O)n1,Singapore/22/79,cytopathic effect,6 µg/mL
NC(=O)c1c[se]c([C@@H]2O[C@H](CO)[C@@H](O)[C@H]2O)n1,B/Singapore/222/79,,19 µM
Nc1ccn([C@@H]2C[C@@H](O)[C@H](CO)O2)c(=O)n1,,,>100 µM
C#Cc1c(C(N)=O)ncn1[C@@H]1O[C@H](CO)[C@@H](O)[C@H]1O,Singapore,cytopathic effect,1 µg/mL
CCOC(=O)C12CC3CC(CC(C3)C1)C2,,cytopathic effect,>196 µM
CC(C)CCCC(C)C1CCC2C3CC=C4CC(OC(=O)Nc5ccc(S(=O)(=O)O)c6ccccc56)CCC4(C)C3CCC12C,Singapore/222/79,cytopathic effect,>200 µM
CN(C)CCN1CCCCC1C12CC3CC(CC(C3)C1)C2,,cytopathic effect,>616 µM
CC(N)C12CC3CC(CC(C3)C1)C2,B/Victoria/102/85,plaque count,>25 µM
CC(C)CCCC(C)C1CCC2C3CC=C4CC(O)CCC4(C)C3CCC12C,Singapore/222/79,cytopathic effect,>200 µM
Nc1ccn([C@@H]2C[C@H](CO)[C@@H](O)[C@H]2O)c(=O)n1,,cytopathic effect,4.5 µg/mL
Nc1ccn([C@@H]2C[C@@H](O)[C@H](CO)O2)c(=O)n1,,,>100 µM
C1CCC(C23CC4CC(CC(C4)C2)C3)NC1,,cytopathic effect,>978 µM
NC12CC3CC(CC(C3)C1)C2,Nagasaki/1/87,plaque count,>50 µg/mL
CC(C)CCCC(C)C1CCC2C3CC=C4CC(OC(=O)Nc5ccc(S(=O)(=O)O)c6cccc(S(=O)(=O)O)c56)CCC4(C)C3CCC12C,Singapore/222/79,cytopathic effect,>100 µM
NC(=O)c1ncn([C@@H]2O[C@H](CO)[C@@H](O)[C@H]2O)c1O,B/Singapore,plaque count,3.3 µg/mL
C1CNC(C23CC4CC(CC(C4)C2)C3)C1,,cytopathic effect,>1035 µM
NC12CC3CC(CC(C3)C1)C2,B/Singapore/222/79,plaque count,>90 µg/mL
Cc1cn([C@@H]2C[C@@H](O)[C@H](CO)O2)c(=O)[nH]c1=O,,,>100 µM
NC(=O)c1ncn([C@@H]2O[C@H](CO)[C@@H](O)[C@H]2O)n1,,cytopathic effect,>19.9 µM